From PMC6669600 (Viruses, 2019) come the findings set out here.

Read-outs that look alike come from different tables or passages of the source.

The test system of assay [1] is HIV-1HXB2 Env-mediated cell-cell fusion. Format: cell-based. To be noted: TZM-bl target, HL2/3 effector, 6 h coculture at 37 C, luciferase, triplicate, repeated three times, mean ± SD, read-out: IC50, inhibition of HIV-1HXB2 Env-mediated cell-cell fusion.
In assay [2] the target is N36 (gp41 NHR-derived target mimic peptide) (Human immunodeficiency virus type 1 group M subtype B, UniProt P04578). In words: CD spectroscopy of inhibitor complexed with N36. The format is binding, HIV-1. The settings on record: thermal denaturation of complex at 222 nm, 20-98 C, 2 C/min, each peptide 10 μM in PBS; repeated two times, representative data.

What is called IC50 is the concentration needed to halve the response being measured. As for `CC[C@H](C)[C@H](NC(=O)[C@H](CC(C)C)NC(=O)[C@H](CCC(=O)O)NC(=O)[C@H](CCC(=O)O)NC(=O)[C@@H](NC(=O)[C@H](CCCCN)NC(=O)[C@H](CCCCN)NC(=O)[C@@H](NC(=O)[C@H](Cc1ccc(O)cc1)NC(=O)[C@H](CCC(=O)O)NC(=O)[C@H](CCC(=O)O)NC(=O)[C@@H](NC(=O)[C@H](CCCCN)NC(=O)[C@H](CCCCN)NC(=O)[C@H](CC(=O)O)NC(=O)[C@H](Cc1c[nH]c2ccccc12)NC(=O)[C@H](CCC(=O)O)NC(=O)[C@H](CCC(=O)O)NC(=O)[C@H](Cc1c[nH]c2ccccc12)NC(C)=O)[C@@H](C)CC)[C@@H](C)O)[C@@H](C)CC)C(=O)N[C@@H](CCCCN)C(=O)N[C@@H](CCCCN)C(=O)N[C@@H](CO)C(=O)N[C@@H](CCC(=O)O)C(=O)N[C@@H](CCC(=O)O)C(=O)N[C@@H](CCC(N)=O)C(=O)N[C@@H](CCC(N)=O)C(=O)N[C@@H](CCCCN)C(=O)N[C@@H](CCCCN)C(=O)N[C@@H](CC(N)=O)C(=O)N[C@@H](CCC(=O)O)C(=O)N[C@@H](CCCCN)C(N)=O` [SC31EK], the IC50 in assay [1] (SD) turned out to be 0.9 ± 0.3 nM. In assay [2], the “CD data (with N36) Tm (°C)” value was found to be 68.6 °C. Regarding `CC[C@H](C)[C@H](NC(=O)[C@H](CC(C)C)NC(=O)[C@H](CCC(=O)O)NC(=O)[C@H](CCC(=O)O)NC(=O)[C@@H](NC(=O)[C@H](CCCCN)NC(=O)[C@H](CCCCN)NC(=O)[C@@H](NC(=O)[C@H](Cc1ccc(O)cc1)NC(=O)[C@H](CCC(=O)O)NC(=O)[C@H](CCC(=O)O)NC(=O)[C@@H](NC(=O)[C@H](CCCCN)NC(=O)[C@H](CCCCN)NC(=O)[C@H](CC(=O)O)NC(=O)[C@H](Cc1c[nH]c2ccccc12)NC(=O)[C@H](CCC(=O)O)NC(=O)[C@H](CCC(=O)O)NC(=O)[C@H](Cc1c[nH]c2ccccc12)NC(C)=O)[C@@H](C)CC)[C@@H](C)O)[C@@H](C)CC)C(=O)N[C@@H](CCCCN)C(=O)N[C@@H](CCCCN)C(=O)N[C@@H](CO)C(=O)N[C@@H](CCC(=O)O)C(=O)N[C@@H](CCC(=O)O)C(=O)N[C@@H](CCC(N)=O)C(=O)N[C@@H](CCC(N)=O)C(=O)N[C@@H](CCCCN)C(N)=O` [SC27EK], in assay [1] (SD), the half-inhibitory concentration (IC50) stood at 21.4 ± 2.5 nM. Also, in assay [2], the “CD data (with N36) Tm (°C)” value was 57.8 °C. As for `CC[C@H](C)[C@H](NC(=O)[C@H](CC(C)C)NC(=O)[C@H](CCC(=O)O)NC(=O)[C@H](CCC(=O)O)NC(=O)[C@@H](NC(=O)[C@H](CCCCN)NC(=O)[C@H](CCCCN)NC(=O)[C@@H](NC(=O)[C@H](Cc1ccc(O)cc1)NC(=O)[C@H](CCC(=O)O)NC(=O)[C@H](CCC(=O)O)NC(=O)[C@@H](NC(=O)[C@H](CCCCN)NC(=O)[C@H](CCCCN)NC(=O)[C@H](CC(=O)O)NC(=O)[C@H](Cc1c[nH]c2ccccc12)NC(=O)[C@H](CCC(=O)O)NC(=O)[C@H](CCC(=O)O)NC(=O)[C@H](Cc1c[nH]c2ccccc12)NC(C)=O)[C@@H](C)CC)[C@@H](C)O)[C@@H](C)CC)C(N)=O` [SC19EK], the IC50 in assay [1] (SD) was determined as 217 ± 16.5 nM. Besides, the “CD data (with N36) Tm (°C)” value in assay [2] amounted to 57.7 °C.

With `CC[C@H](C)[C@H](NC(=O)[C@H](CC(C)C)NC(=O)[C@H](CCC(=O)O)NC(=O)[C@H](CCC(=O)O)NC(=O)[C@@H](NC(=O)[C@H](CCCCN)NC(=O)[C@H](CCCCN)NC(=O)[C@@H](NC(=O)[C@H](Cc1ccc(O)cc1)NC(=O)[C@H](CCC(=O)O)NC(=O)[C@H](CCC(=O)O)NC(=O)[C@@H](NC(=O)[C@H](CCCCN)NC(=O)[C@H](CCCCN)NC(=O)[C@H](CC(=O)O)NC(=O)[C@H](Cc1c[nH]c2ccccc12)NC(=O)[C@H](CCC(=O)O)NC(=O)[C@H](CCC(=O)O)NC(=O)[C@H](Cc1c[nH]c2ccccc12)NC(=O)[C@@H](NC(=O)[C@H](CCSC)NC(C)=O)[C@@H](C)O)[C@@H](C)CC)[C@@H](C)O)[C@@H](C)CC)C(=O)N[C@@H](CCCCN)C(=O)N[C@@H](CCCCN)C(=O)N[C@@H](CO)C(=O)N[C@@H](CCC(=O)O)C(=O)N[C@@H](CCC(=O)O)C(=O)N[C@@H](CCC(N)=O)C(=O)N[C@@H](CCC(N)=O)C(=O)N[C@@H](CCCCN)C(=O)N[C@@H](CCCCN)C(=O)N[C@@H](CC(N)=O)C(=O)N[C@@H](CCC(=O)O)C(N)=O` [MT-SC30EK], the IC50 in assay [1] (SD) is 0.8 ± 0.2 nM. Further, the “CD data (with N36) Tm (°C)” value in assay [2] is 77.4 °C.

For `CC[C@H](C)[C@H](NC(=O)[C@H](CC(C)C)NC(=O)[C@H](CCC(=O)O)NC(=O)[C@H](CCC(=O)O)NC(=O)[C@@H](NC(=O)[C@H](CCCCN)NC(=O)[C@H](CCCCN)NC(=O)[C@@H](NC(=O)[C@H](Cc1ccc(O)cc1)NC(=O)[C@H](CCC(=O)O)NC(=O)[C@H](CCC(=O)O)NC(=O)[C@@H](NC(=O)[C@H](CCCCN)NC(=O)[C@H](CCCCN)NC(=O)[C@H](CC(=O)O)NC(=O)[C@H](Cc1c[nH]c2ccccc12)NC(=O)[C@H](CCC(=O)O)NC(=O)[C@H](CCC(=O)O)NC(=O)[C@H](Cc1c[nH]c2ccccc12)NC(C)=O)[C@@H](C)CC)[C@@H](C)O)[C@@H](C)CC)C(=O)N[C@@H](CCCCN)C(=O)N[C@@H](CCCCN)C(=O)N[C@@H](CO)C(=O)N[C@@H](CCC(=O)O)C(=O)N[C@@H](CCC(=O)O)C(=O)N[C@@H](CCC(N)=O)C(=O)N[C@@H](CCC(N)=O)C(=O)N[C@@H](CCCCN)C(=O)N[C@@H](CCCCN)C(=O)N[C@@H](CC(N)=O)C(=O)N[C@@H](CCC(=O)O)C(=O)N[C@@H](CCCCN)C(=O)N[C@@H](CCC(=O)O)C(=O)N[C@@H](CC(C)C)C(N)=O` [SC33EK], the half-maximal inhibitory concentration (IC50) in assay [1] (SD) was determined as 0.7 ± 0.4 nM. Further, the “CD data (with N36) Tm (°C)” value in assay [2] turned out to be 75.4 °C. In the case of `CC[C@H](C)[C@H](NC(=O)[C@H](CC(C)C)NC(=O)[C@H](CCC(=O)O)NC(=O)[C@H](CCC(=O)O)NC(=O)[C@@H](NC(=O)[C@H](CCCCN)NC(=O)[C@H](CCCCN)NC(=O)[C@@H](NC(=O)[C@H](Cc1ccc(O)cc1)NC(=O)[C@H](CCC(=O)O)NC(=O)[C@H](CCC(=O)O)NC(=O)[C@@H](NC(=O)[C@H](CCCCN)NC(=O)[C@H](CCCCN)NC(=O)[C@H](CC(=O)O)NC(=O)[C@H](Cc1c[nH]c2ccccc12)NC(=O)[C@H](CCC(=O)O)NC(=O)[C@H](CCC(=O)O)NC(=O)[C@H](Cc1c[nH]c2ccccc12)NC(=O)[C@@H](NC(=O)[C@H](CCSC)NC(C)=O)[C@@H](C)O)[C@@H](C)CC)[C@@H](C)O)[C@@H](C)CC)C(=O)N[C@@H](CCCCN)C(=O)N[C@@H](CCCCN)C(=O)N[C@@H](CO)C(=O)N[C@@H](CCC(=O)O)C(=O)N[C@@H](CCC(=O)O)C(=O)N[C@@H](CCC(N)=O)C(=O)N[C@@H](CCC(N)=O)C(=O)N[C@@H](CCCCN)C(=O)N[C@@H](CCCCN)C(=O)N[C@@H](CC(N)=O)C(N)=O` [MT-SC29EK], the IC50 in assay [1] (SD) was found to be 1.1 ± 0.2 nM. Besides, the “CD data (with N36) Tm (°C)” value in assay [2] came to 73 °C. The like results for `CC[C@H](C)[C@H](NC(=O)[C@H](CC(C)C)NC(=O)[C@H](CCC(=O)O)NC(=O)[C@H](CCC(=O)O)NC(=O)[C@@H](NC(=O)[C@H](CCCCN)NC(=O)[C@H](CCCCN)NC(=O)[C@@H](NC(=O)[C@H](Cc1ccc(O)cc1)NC(=O)[C@H](CCC(=O)O)NC(=O)[C@H](CCC(=O)O)NC(=O)[C@@H](NC(=O)[C@H](CCCCN)NC(=O)[C@H](CCCCN)NC(=O)[C@H](CC(=O)O)NC(=O)[C@H](Cc1c[nH]c2ccccc12)NC(=O)[C@H](CCC(=O)O)NC(=O)[C@H](CCC(=O)O)NC(=O)[C@H](Cc1c[nH]c2ccccc12)NC(=O)[C@@H](NC(=O)[C@H](CCSC)NC(C)=O)[C@@H](C)O)[C@@H](C)CC)[C@@H](C)O)[C@@H](C)CC)C(=O)N[C@@H](CCCCN)C(=O)N[C@@H](CCCCN)C(=O)N[C@@H](CO)C(=O)N[C@@H](CCC(=O)O)C(=O)N[C@@H](CCC(=O)O)C(=O)N[C@@H](CCC(N)=O)C(=O)N[C@@H](CCC(N)=O)C(N)=O` [MT-SC26EK] were, in that order, 1.1 ± 0.2 nM and 70.2 °C.

In the case of `CC[C@H](C)[C@H](NC(=O)[C@H](CC(C)C)NC(=O)[C@H](CCC(=O)O)NC(=O)[C@H](CCC(=O)O)NC(=O)[C@@H](NC(=O)[C@H](CCCCN)NC(=O)[C@H](CCCCN)NC(=O)[C@@H](NC(=O)[C@H](Cc1ccc(O)cc1)NC(=O)[C@H](CCC(=O)O)NC(=O)[C@H](CCC(=O)O)NC(=O)[C@@H](NC(=O)[C@H](CCCCN)NC(=O)[C@H](CCCCN)NC(=O)[C@H](CC(=O)O)NC(=O)[C@H](Cc1c[nH]c2ccccc12)NC(=O)[C@H](CCC(=O)O)NC(=O)[C@H](CCC(=O)O)NC(=O)[C@H](Cc1c[nH]c2ccccc12)NC(=O)[C@@H](NC(=O)[C@H](CCSC)NC(C)=O)[C@@H](C)O)[C@@H](C)CC)[C@@H](C)O)[C@@H](C)CC)C(=O)N[C@@H](CCCCN)C(=O)N[C@@H](CCCCN)C(N)=O` [MT-SC21EK], the IC50 in assay [1] (SD) was 3.1 ± 1.2 nM. Further, in assay [2], the “CD data (with N36) Tm (°C)” value came to 69.6 °C. For the molecule `CC[C@H](C)[C@H](NC(=O)[C@H](CCCCN)NC(=O)[C@H](CCCCN)NC(=O)[C@H](CC(=O)O)NC(=O)[C@H](Cc1c[nH]c2ccccc12)NC(=O)[C@H](CCC(=O)O)NC(=O)[C@H](CCC(=O)O)NC(=O)[C@H](Cc1c[nH]c2ccccc12)NC(C)=O)C(=O)N[C@@H](CCC(=O)O)C(=O)N[C@@H](CCC(=O)O)C(=O)N[C@@H](Cc1ccc(O)cc1)C(=O)N[C@H](C(=O)N[C@@H](CCCCN)C(=O)N[C@@H](CCCCN)C(=O)N[C@H](C(=O)N[C@@H](CCC(=O)O)C(=O)N[C@@H](CCC(=O)O)C(=O)N[C@@H](CC(C)C)C(N)=O)[C@@H](C)CC)[C@@H](C)O` [SC18EK], the concentration for half-maximal inhibition (IC50) in assay [1] was greater than 2000 nM.
